US20140323691A1 (UAB RESEARCH FOUNDATION, published 2014)

What was measured:
[1] = molecular target: T1, CotE (Bacillus anthracis); assay: isopeptide bonds formed in vivo, LC-MS/MS
T1 chain: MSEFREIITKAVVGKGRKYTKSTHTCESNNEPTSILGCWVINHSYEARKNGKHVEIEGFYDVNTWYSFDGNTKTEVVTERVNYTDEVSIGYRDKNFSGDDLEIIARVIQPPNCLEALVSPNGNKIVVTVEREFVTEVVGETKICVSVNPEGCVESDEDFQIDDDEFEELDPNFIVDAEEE

[2] = molecular target: T2, BxpB (exosporium basal layer protein) (Bacillus anthracis); assay: isopeptide bonds formed in vivo, LC-MS/MS
T2 chain: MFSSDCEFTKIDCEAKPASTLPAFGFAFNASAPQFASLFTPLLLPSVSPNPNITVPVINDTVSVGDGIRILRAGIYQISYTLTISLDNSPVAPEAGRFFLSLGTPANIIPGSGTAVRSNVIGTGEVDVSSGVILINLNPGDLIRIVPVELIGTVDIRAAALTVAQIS

B1: CotY (other)
chain: SCNCNEDHHHHDCDFNCVSNVVRFIHELQECATTTCGSGCEVPFLGAHNSASVANTRPFILYTKAGAPFEAFAPSANLTSCRSPIFRVESIDDDDCAVLRVLSVVLGDTSPVPPTDDPICTFLAVPNARLISTNTCLTVDLSCFCAIQCLRDVTI
binding result [1]: binds
binding result [2]: binds

B2: ExsY (other)
chain: SCNENKHHGSSHCVVDVVKFINELQDCSTTTCGSGCEIPFLGAHNTASVANTRPFILYTKAGAPFEAFAPSANLTSCRSPIFRVESVDDDSCAVLRVLSVVLGDSSPVPPTDDPICTFLAVPNARLVSTSTCITVDLSCFCAIQCLRDVTI
binding result [1]: binds
binding result [2]: binds
